Anti-infective test results gathered from many reports (values: NIAID ChemDB through PubChem).

Common to all: tests in culture; species: Plasmodium falciparum; read-out: EC50

ECn is the concentration giving n% inhibition of infection, replication or growth. Neighbouring rows are from separate reports. Blank or dashed fields: not listed here.

structure	changes	cells	read by	setting	strain	value
CCN(CC)CCCC(C)Nc1ccnc2cc(Cl)ccc12			hypoxanthine uptake / radiometric		W2	0.29 µM
Cn1nc(C(F)(F)F)c(-c2ccc(Br)cc2)c1NC(=O)Nc1ccc(F)cc1F	GNF-Pf4492-resistant I203L/P990R		SYBR Green / fluorescence		GNF-Pf4492R-2	0.811 µM
COc1ccc(CCn2c(N)c(-c3nc4ccccc4n3C)c3nc(C#N)c(C#N)nc32)cc1		Erythrocytes	hypoxanthine uptake / radiometric		NF54	4.8 µM
Cc1ccc(C2Nc3ccccc3C(=O)N2CCCCN2CCOCC2)cc1			luciferase		3D7	>20 µM
C[C@H]1Cc2c([nH]c3cc(Cl)c(F)cc23)[C@@]2(N1)C(=O)Nc1ccc(Cl)cc12	Multidrug-resistant		SYBR Green / fluorescence		Dd2 (EF1)	0.00069 µM
N=C(N)c1ccc(NCCCCNc2ccc(C(=N)N)cc2)cc1			hypoxanthine uptake		D6	0.053 µM
OCCN1CCN(C(c2ccccc2)c2ccccc2)CC1			SYBR Green / fluorescence		Dd2	>2.5 µM
N#Cc1nc2c(-c3nc4ccccc4[nH]3)c(N)n(CCc3ccccc3)c2nc1C#N		Erythrocytes	hypoxanthine uptake / radiometric		NF54	0.28 µM
COc1cc(C2=NCCN2)ccc1OCCCCOc1ccc(C2=NCCN2)cc1OC			hypoxanthine uptake		D6	0.385 µM
Cc1ccc(N2C(=O)[C@H](NC(=O)CCCNc3ccnc4cc(Cl)ccc34)[C@@H]2/C=C/c2ccccc2)cc1	Chloroquine-resistant		flow cytometry		W2	0.0795 µM
C[C@H]1Cc2c([nH]c3cc(F)c(F)cc23)[C@@]2(N1)C(=O)Nc1ccc(Cl)cc12	GNF-Pf4492-resistant A211T		SYBR Green / fluorescence		GNF-Pf4492R-1	0.0000473 µM
Cc1ccc(N2C(=O)[C@H](NC(=O)CCCCCNc3ccnc4cc(Cl)ccc34)[C@@H]2/C=C/c2ccccc2)cc1	Chloroquine-resistant		flow cytometry		W2	0.0898 µM
CCN(CC)CCCC(C)Nc1ccnc2cc(Cl)ccc12		RBC	MTT / LDH		D10	0.04 µM
CCCCN1C(=O)[C@@H](NCCNc2ccnc3cc(Cl)ccc23)[C@H]1/C=C/c1ccccc1	Chloroquine-resistant		flow cytometry		W2	0.6118 µM
CCCCN1C(=O)c2ccccc2NC1c1ccc(OC)c(COc2ccc(F)cc2)c1			luciferase		3D7	>20 µM
N=C(N)c1ccc(OCCCCCOc2ccc(C(=N)N)cc2Cl)c(Cl)c1			hypoxanthine uptake		D6	0.08 µM
CCN(CC)CCN1C(=O)c2ccccc2NC1c1ccc2c(c1)OCO2			luciferase		3D7	>20 µM
O=C1[C@@H](NCCNc2ccnc3cc(Cl)ccc23)[C@@H](/C=C/c2ccccc2)N1c1ccc(F)cc1	Chloroquine-resistant		flow cytometry		W2	0.0596 µM
CCN(CC)CCN1C(=O)c2ccccc2NC1c1cc(OC)c(OC)c(OC)c1			luciferase		3D7	>20 µM
COCCn1cc(-c2ccnc(N)n2)c2cc(Br)ccc21			LDH		W2	>14.49 µM
O=C(CNc1ccnc2cc(Cl)ccc12)N[C@H]1C(=O)N(c2ccc(F)cc2)[C@H]1/C=C/c1ccccc1	Chloroquine-resistant		flow cytometry		W2	0.4009 µM
O=c1[nH]c(-c2c[nH]c3ccc(I)cc23)nc2ccccc12			LDH		W2	>14.49 µM
CCCCN1C(=O)c2ccccc2NC1c1ccc(F)cc1			luciferase		3D7	>20 µM
c1cc(C2=NCCN2)ccc1OCCCOc1ccc(C2=NCCN2)cc1			hypoxanthine uptake		W2	0.124 µM
O=C(Nc1cc(C(F)(F)F)ccc1-n1cncn1)C1(c2cccc(C(F)(F)F)c2)CC1					HB3	0.005 µM
N#Cc1nc2c(-c3nc4ccccc4[nH]3)c(N)n(Cc3cccc(C(F)(F)F)c3)c2nc1C#N		Erythrocytes	hypoxanthine uptake / radiometric		NF54	0.18 µM
N=C(N)c1ccc(NCCCCNc2ccc(C(=N)N)cc2N)c(N)c1			hypoxanthine uptake		D6	0.659 µM
CCCCCCCCCCCCOc1cccc(C2(O)NC(=O)c3cnccc32)c1			broth dilution / radiometric			>2500 µM
NCCCC[C@H](N)C(=O)N(O)C1C[C@@H](C(N)=O)N(C(=O)c2ccccc2-c2ncc(-c3ccccc3)o2)C1		Red blood cells	flow cytometry	96 h	3D7	427.1 µM
O=C(Nc1cc(C(F)(F)F)ccc1-n1cncn1)C1(c2ccccc2)CC1					K1	0.129 µM
CC(C)CN1C(=O)[C@H](NC(=O)CCCCCNc2ccnc3cc(Cl)ccc23)[C@@H]1/C=C/c1ccccc1	Chloroquine-resistant		flow cytometry		W2	0.3551 µM
N=C(N)c1ccc(NCCCCCNc2ccc(C(=N)N)cc2[N+](=O)[O-])c([N+](=O)[O-])c1			hypoxanthine uptake		W2	0.248 µM
CC(C)CN1C(=O)[C@H](NC(=O)CCNc2ccnc3cc(Cl)ccc23)[C@@H]1/C=C/c1ccccc1	Chloroquine-resistant		flow cytometry		W2	0.5653 µM
CCN(CC)CCN1C(=O)c2ccccc2NC1c1ccc(F)cc1			luciferase		3D7	1.69 µM
N=C(N)c1ccc(OCCCCCOc2ccc(C(=N)N)cc2)cc1			hypoxanthine uptake		W2	0.129 µM
NCCSC[C@H](N)C(=O)N(O)C1C[C@@H](C(N)=O)N(C(=O)CCc2cn(-c3ccccc3)nc2-c2ccccc2)C1		Red blood cells	flow cytometry	96 h	3D7	29.5 µM
CCN(CC)CCCC(C)n1c(N)c(-c2nc3ccccc3n2C)c2nc(C#N)c(C#N)nc21		Erythrocytes	hypoxanthine uptake / radiometric		NF54	0.34 µM
O=C(CCCCCNc1ccnc2cc(Cl)ccc12)N[C@H]1C(=O)N(c2ccc(F)cc2)[C@H]1/C=C/c1ccccc1	Chloroquine-resistant		flow cytometry		W2	0.1874 µM
CCN(CC)CCN1C(=O)c2ccccc2NC1c1cccc(F)c1			luciferase		3D7	>10 µM
Nc1nccc(-c2cn(Cc3ccc(Cl)s3)c3ccccc23)n1			LDH		D6	>14.43 µM
CCN(CC)CCCC(C)Nc1ccnc2cc(Cl)ccc12			radiometric		3D7	0.03 µM
COc1ccc(Cn2c(N)c(-c3nc4ccccc4[nH]3)c3nc(C#N)c(C#N)nc32)cc1O		Erythrocytes	hypoxanthine uptake / radiometric		NF54	1.27 µM
N=C(N)c1ccc(NCCCNc2ccc(C(=N)N)cc2)cc1			hypoxanthine uptake		W2	0.076 µM
N#Cc1nc2c(-c3nc4ccccc4[nH]3)c(N)n(CCc3cnc[nH]3)c2nc1C#N		Erythrocytes	hypoxanthine uptake / radiometric		NF54	0.12 µM
O=C(CCNc1ccnc2cc(Cl)ccc12)N[C@H]1C(=O)N(C2CCCCCC2)[C@H]1/C=C/c1ccccc1	Chloroquine-resistant		flow cytometry		W2	0.3781 µM

Repeating the first 7 entries:

structure	changes	cells	read by	setting	strain	value
CCN(CC)CCCC(C)Nc1ccnc2cc(Cl)ccc12			hypoxanthine uptake / radiometric		W2	0.29 µM
Cn1nc(C(F)(F)F)c(-c2ccc(Br)cc2)c1NC(=O)Nc1ccc(F)cc1F	GNF-Pf4492-resistant I203L/P990R		SYBR Green / fluorescence		GNF-Pf4492R-2	0.811 µM
COc1ccc(CCn2c(N)c(-c3nc4ccccc4n3C)c3nc(C#N)c(C#N)nc32)cc1		Erythrocytes	hypoxanthine uptake / radiometric		NF54	4.8 µM
Cc1ccc(C2Nc3ccccc3C(=O)N2CCCCN2CCOCC2)cc1			luciferase		3D7	>20 µM
C[C@H]1Cc2c([nH]c3cc(Cl)c(F)cc23)[C@@]2(N1)C(=O)Nc1ccc(Cl)cc12	Multidrug-resistant		SYBR Green / fluorescence		Dd2 (EF1)	0.00069 µM
N=C(N)c1ccc(NCCCCNc2ccc(C(=N)N)cc2)cc1			hypoxanthine uptake		D6	0.053 µM
OCCN1CCN(C(c2ccccc2)c2ccccc2)CC1			SYBR Green / fluorescence		Dd2	>2.5 µM